Results as given in patent publication US20240245675A1, “PROTEIN SECRETION INHIBITORS” (Gate Bioscience, Inc., priority 2021, published 2024).

The chains behind the UniProt entries cited, without tags or fusion partners.
UniProt P61619, whole entry, looked up: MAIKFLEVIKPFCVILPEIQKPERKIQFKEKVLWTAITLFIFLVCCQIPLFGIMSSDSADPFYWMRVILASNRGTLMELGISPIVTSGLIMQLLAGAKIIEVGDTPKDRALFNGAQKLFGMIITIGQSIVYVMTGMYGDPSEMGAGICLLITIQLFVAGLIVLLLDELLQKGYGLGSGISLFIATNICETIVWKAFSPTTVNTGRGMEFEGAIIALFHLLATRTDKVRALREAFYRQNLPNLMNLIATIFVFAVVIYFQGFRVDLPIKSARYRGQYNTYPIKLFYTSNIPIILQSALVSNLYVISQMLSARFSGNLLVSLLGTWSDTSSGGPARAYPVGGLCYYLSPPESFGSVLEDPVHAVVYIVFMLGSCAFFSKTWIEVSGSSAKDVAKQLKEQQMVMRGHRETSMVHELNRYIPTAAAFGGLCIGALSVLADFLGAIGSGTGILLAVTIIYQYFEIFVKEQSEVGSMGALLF

Biological target: PRP Construct (signal peptide + 10 amino acids of Prion protein fused to HaloTag-HiBit) (Homo sapiens, UniProt P61619)
Assay: cell-based

Structure (SMILES) | IC50
O=C(CCNc1ccncc1)Nc1nc([C@H]2CCCN2c2ccccc2)cs1 [Compound 3, (R)—N-(4-(1-phenylpyrrolidin-2-yl)thiazol-2-yl)-3-(pyridin-4-ylamino)propanamide] | > 30 µM
CN(Cc1ccncc1)C(=O)Nc1nc([C@H]2CCCN2c2ccccc2)cs1 [Compound 10, (R)-1-methyl-3-(4-(1-phenylpyrrolidin-2-yl)thiazol-2-yl)-1-(pyridin-4-ylmethyl)urea] | 10 to 30 µM
